Pooled drug test results. Numbers come from NIAID ChemDB, via PubChem.

Shared fields: target-level tests; agent: HIV-1; target: Reverse transcriptase

Conditions beyond the fields shown may differ between rows.

{"smiles": "Cc1cncn1CC(=O)Nc1cccc(O)c1", "method": "RT activity / nucleotide incorporation", "endpoint": "IC50", "result": ">100 µM"}
{"smiles": "CCC1(c2ccc(CNc3cccc(F)c3)cc2)Oc2ccccc2-n2cccc2C1=O", "method": "nucleotide incorporation / radiometric", "mutations": "RT-K103N", "endpoint": "IC50", "result": "2.3 µM"}
{"smiles": "CCN1c2ncc(CCOc3ccncc3)cc2C(=O)N(C)c2cccnc21", "method": "nucleotide incorporation / radiometric", "mutations": "RT-Y181C", "endpoint": "IC50", "result": "<1 µM"}
{"smiles": "C[C@H](NC(=S)Nc1ccc(Cl)cn1)c1cccc2ccccc12", "method": "nucleotide incorporation", "endpoint": "IC50", "result": ">100 µM"}
{"smiles": "CN1CCN(C(=O)COc2ccc(NC(=O)CSc3nnnn3-c3ccc(C(C)(C)C)cc3Cl)c(Cl)c2)CC1", "strain or isolate": "WT", "method": "PicoGreen / fluorescence", "endpoint": "IC50", "result": "<1 µM"}
{"smiles": "CCOC(=O)Cc1csc(NC(=S)N[C@@H](C)c2cccc3ccccc23)n1", "method": "nucleotide incorporation", "endpoint": "IC50", "result": ">100 µM"}
{"smiles": "CCC1(c2cccc(COc3ccccc3)c2)Oc2ccccc2-n2cccc2C1=O", "method": "nucleotide incorporation / radiometric", "mutations": "RT-V106A", "endpoint": "IC50", "result": "8.3 µM"}
{"smiles": "Cc1ccc(NCC(=O)Cn2cc([N+](=O)[O-])nc2C)cc1", "method": "RT activity / nucleotide incorporation", "endpoint": "IC50", "result": ">100 µM"}
{"smiles": "Cc1cn([C@H]2C=C[C@@H](COP(=O)(O)OP(=O)(O)OP(=O)(O)O)O2)c(=O)[nH]c1=O", "method": "nucleotide incorporation / radiometric", "mutations": "RT-T215Y", "endpoint": "Ki", "result": "0.68 µM"}
{"smiles": "C#Cc1ccc(Nc2nccc(Oc3c(C)cc(-c4cn(CCC(=O)OC)nn4)cc3C)n2)cc1", "method": "RT activity / ELISA", "endpoint": "IC50", "result": "0.14 µM"}
{"smiles": "CCN1c2ncc(COc3cccc(C(N)=O)c3)cc2C(=O)N(C)c2ccc(Cl)nc21", "method": "nucleotide incorporation / radiometric", "mutations": "RT-Y181C", "endpoint": "IC50", "result": "<1 µM"}
{"smiles": "CCC1(c2ccc(COc3cccnc3)cc2)Oc2ccccc2-n2cccc2C1=O", "method": "nucleotide incorporation / radiometric", "mutations": "RT-Y188L", "endpoint": "IC50", "result": "39 µM"}
{"smiles": "Cc1cc(C)cc(Cc2cc(=O)[nH]c(OC3CCCCC3)n2)c1", "strain or isolate": "IIIB", "method": "nucleotide incorporation", "endpoint": "IC50", "result": "1 µM"}
{"smiles": "CCC1(c2cccc(I)c2)Oc2ccccc2-n2cccc2C1=O", "method": "nucleotide incorporation / radiometric", "mutations": "RT-Y188L", "endpoint": "IC50", "result": ">10 µM"}
{"smiles": "C[C@H](NC(=S)Nc1ccccn1)c1cccc2ccccc12", "method": "nucleotide incorporation", "endpoint": "IC50", "result": ">100 µM"}
{"smiles": "Cc1cccc(Cc2cc(=O)[nH]c(OC(C)C)n2)c1", "strain or isolate": "IIIB", "method": "nucleotide incorporation", "endpoint": "IC50", "result": "1 µM"}
{"smiles": "C#Cc1ccc(Nc2nccc(Oc3c(C)cc(-c4cn(Cc5cccc(C(=O)OC)c5)nn4)cc3C)n2)cc1", "method": "RT activity / ELISA", "endpoint": "IC50", "result": "0.22 µM"}
{"smiles": "COc1ccccc1NCC(=O)Cn1cc([N+](=O)[O-])nc1C", "method": "RT activity / nucleotide incorporation", "endpoint": "IC50", "result": ">100 µM"}
{"smiles": "Nc1ccn([C@H]2CC[C@@H](COP(=O)(O)OP(=O)(O)OP(=O)(O)O)O2)c(=O)n1", "method": "nucleotide incorporation / radiometric", "mutations": "RT-A62V V75I F77L F116Y Q151M", "endpoint": "Ki", "result": "1.4 µM"}
{"smiles": "COc1nc(Cc2cc(C)cc(C)c2)cc(=O)[nH]1", "strain or isolate": "IIIB", "method": "nucleotide incorporation", "endpoint": "IC50", "result": ">10 µM"}
{"smiles": "Cc1ccc(NC(=S)N[C@@H](C)c2cccc3ccccc23)nc1", "method": "nucleotide incorporation", "endpoint": "IC50", "result": ">100 µM"}
{"smiles": "CCN1c2ncc(COc3ccccc3O)cc2C(=O)N(C)c2ccc(Cl)nc21", "strain or isolate": "WT", "method": "nucleotide incorporation / radiometric", "endpoint": "IC50", "result": "<1 µM"}
{"smiles": "C=C(C)CCOCc1ccc(C2(CC)Oc3ccccc3-n3cccc3C2=O)cc1", "strain or isolate": "WT", "method": "nucleotide incorporation / radiometric", "endpoint": "IC50", "result": "2.8 µM"}
{"smiles": "Cc1ncc([N+](=O)[O-])n1CCOC(c1ccccc1)c1cnccn1", "method": "RT activity / nucleotide incorporation", "endpoint": "IC50", "result": ">100 µM"}
{"smiles": "Cc1cc(S(N)(=O)=O)ccc1NC(=O)COc1ccc(Cl)cc1C(=O)c1cc(Cl)cc(C#N)c1", "method": "fluorescence", "mutations": "RT-K103N", "endpoint": "IC50", "result": "0.0019 µM"}
{"smiles": "C#Cc1ccc(Nc2nccc(Oc3c(C)cc(-c4cn(CC(=O)Nc5ccc(Br)cc5)nn4)cc3C)n2)cc1", "method": "RT activity / ELISA", "endpoint": "IC50", "result": "0.76 µM"}
{"smiles": "C[C@@H](NC(=S)Nc1ccccn1)c1cccc2ccccc12", "method": "nucleotide incorporation", "endpoint": "IC50", "result": "1.21 µM"}
{"smiles": "Cc1occc1C(=S)Nc1ccc(Cl)c(/C=N/OC(C)(C)C)c1", "mutations": "RT-Y181I", "endpoint": "IC50", "result": "27.8 µM"}
{"smiles": "C=C1[C@H](CO)[C@@H](O)C[C@@H]1n1cnc2c(=O)[nH]c(N)nc21", "method": "RT activity / ELISA", "endpoint": "IC50", "result": "1.35 µM"}
{"smiles": "CCN1c2ncc(CNc3ccccc3)cc2C(=O)N(C)c2ccc(Cl)nc21", "method": "nucleotide incorporation / radiometric", "mutations": "RT-Y181C", "endpoint": "IC50", "result": "<1 µM"}
{"smiles": "Nc1ccn([C@@H]2CS[C@H](COP(=O)(O)OP(=O)(O)OP(=O)(O)O)O2)c(=O)n1", "method": "nucleotide incorporation / radiometric", "endpoint": "Ki", "result": "1.3 µM"}
{"smiles": "C/C=C/CSc1cc(NC(=S)c2ccsc2C)ccc1Cl", "mutations": "RT-K103N", "endpoint": "IC50", "result": ">100 µM"}
{"smiles": "CC(C)=CCOc1cc(NC(=S)c2ccoc2C)ccc1Cl", "mutations": "RT-E138K", "endpoint": "IC50", "result": "2.1 µM"}
{"smiles": "CCN1c2ncc(COc3cc[n+]([O-])cc3)cc2C(=O)N(C)c2ccc(Cl)nc21", "strain or isolate": "WT", "method": "nucleotide incorporation / radiometric", "endpoint": "IC50", "result": "<1 µM"}
{"smiles": "CCC1(c2cccc(Cl)c2)Oc2ccccc2-n2cccc2C1=O", "method": "nucleotide incorporation / radiometric", "mutations": "RT-K103N", "endpoint": "IC50", "result": ">100 µM"}
{"smiles": "Nc1nc(=O)n([C@@H]2CC[C@H](COP(=O)(O)OP(=O)(O)OP(=O)(O)O)O2)cc1F", "method": "nucleotide incorporation / radiometric", "mutations": "RT-Q151M", "endpoint": "Ki", "result": "3.3 µM"}
{"smiles": "C#Cc1ccc(Nc2nccc(Oc3c(C)cc(-c4cn(Cc5ccccc5)nn4)cc3C)n2)cc1", "method": "RT activity / ELISA", "endpoint": "IC50", "result": "0.18 µM"}
{"smiles": "Cc1cccc(NC(=S)N[C@H](C)c2cccc3ccccc23)n1", "method": "nucleotide incorporation", "endpoint": "IC50", "result": "1.03 µM"}
{"smiles": "Cc1c(Sc2ccccc2)n(COCCO)c(=O)[nH]c1=O", "method": "nucleotide incorporation", "endpoint": "IC50", "result": "33 µM"}
{"smiles": "CCN1c2ncc(CCc3ccccc3)cc2C(=O)N(C)c2cccnc21", "strain or isolate": "WT", "method": "nucleotide incorporation / radiometric", "endpoint": "IC50", "result": "<1 µM"}
{"smiles": "Cc1nc([N+](=O)[O-])cn1CC(=O)CNc1ccccc1", "method": "RT activity / nucleotide incorporation", "endpoint": "IC50", "result": ">100 µM"}
{"smiles": "CCC1(c2cccc(N=[N+]=[N-])c2)Oc2ccccc2-n2cccc2C1=O", "strain or isolate": "WT", "method": "nucleotide incorporation / radiometric", "endpoint": "IC50", "result": ">100 µM"}
{"smiles": "Cc1cccc2sc(NC(=S)N[C@@H](C)c3cccc4ccccc34)nc12", "method": "nucleotide incorporation", "endpoint": "IC50", "result": ">100 µM"}
{"smiles": "CCc1c(Sc2ccccn2)n(COCc2ccccc2)c(=O)[nH]c1=O", "mutations": "RT-K103N", "endpoint": "IC50", "result": "20 µM"}
{"smiles": "C[C@H](NC(=S)Nc1nccs1)c1cccc2ccccc12", "method": "nucleotide incorporation", "endpoint": "IC50", "result": ">100 µM"}
{"smiles": "Cc1nc([N+](=O)[O-])cn1CC(=O)CNc1ccc(Cl)cc1", "method": "RT activity / nucleotide incorporation", "endpoint": "IC50", "result": ">100 µM"}
{"smiles": "CCC(C)Oc1nc(Cc2cc(C)cc(C)c2)c(C)c(=O)[nH]1", "strain or isolate": "IIIB", "method": "nucleotide incorporation", "endpoint": "IC50", "result": "2 µM"}

A second listing of 4 rows from above:

Cc1cccc2sc(NC(=S)N[C@@H](C)c3cccc4ccccc34)nc12 ; method: nucleotide incorporation ; endpoint: IC50 ; result: >100 µM
C#Cc1ccc(Nc2nccc(Oc3c(C)cc(-c4cn(CC(=O)Nc5ccc(Br)cc5)nn4)cc3C)n2)cc1 ; method: RT activity / ELISA ; endpoint: IC50 ; result: 0.76 µM
C=C1[C@H](CO)[C@@H](O)C[C@@H]1n1cnc2c(=O)[nH]c(N)nc21 ; method: RT activity / ELISA ; endpoint: IC50 ; result: 1.35 µM
Cc1cncn1CC(=O)Nc1cccc(O)c1 ; method: RT activity / nucleotide incorporation ; endpoint: IC50 ; result: >100 µM

ICn is the concentration giving n% inhibition.